Pooled drug test results. Numbers come from NIAID ChemDB, via PubChem.

All rows: tests in culture; species: Candida albicans

Blank or dashed fields: not listed here. Conditions beyond the fields shown may differ between rows. a–b is a range or a potency band. MIC50, MIC90 and the like: level of inhibition, or share of isolates inhibited.

{"SMILES": "CN(CC(=O)Nc1ccc(F)c(Cl)c1)CC(O)(Cn1cncn1)c1ccc(F)cc1F", "endpoint": "MIC80", "result": "1 µg/mL"}
{"SMILES": "CC[C@H]1OC(=O)C[C@@H](O)[C@H](C)[C@@H](OC2OC(C)C(O)C(N(C)C)C2O)[C@@H](CCN2CC(C)CC(C)C2)C[C@@H](C)C(=O)/C=C/C=C/[C@@H]1CSc1ccccc1", "endpoint": "MIC", "result": "0.312 µg/mL"}
{"SMILES": "COc1ccc(N2C(=O)C(c3ccccc3)(c3ccccc3)C2c2cccs2)cc1", "endpoint": "MIC", "result": "100 µg/mL"}
{"SMILES": "CC[C@H]1OC(=O)C[C@@H](O)[C@H](C)[C@@H](OC2OC(C)C(O)C(N(C)C)C2O)[C@@H](CCN2CC(C)CC(C)C2)C[C@@H](C)C(=O)/C=C/C=C/[C@@H]1COc1ccccc1", "endpoint": "MIC", "result": "1.25 µg/mL"}
{"SMILES": "NCCSC(C[N+](=O)[O-])c1cc([N+](=O)[O-])ccc1Br", "endpoint": "MIC", "result": "1000 µg/mL"}
{"SMILES": "CCN(CC)Cn1c(C=Cc2ccc([N+](=O)[O-])cc2)nc2ccccc21", "endpoint": "MIC", "result": "17.1 µM"}
{"SMILES": "CC(C)N=C(N)c1ccc2nc(-c3ccc4c(c3)Cc3cc(-c5nc6ccc(C(N)=NC(C)C)cc6[nH]5)ccc3-4)[nH]c2c1", "strain": "Isolate 3028 fluconazole-resistant", "endpoint": "MIC", "result": "1.56 µg/mL"}
{"SMILES": "CC(=O)c1cn([C@@H]2O[C@H]([C@H](NC(=O)[C@@H](N)[C@H](C)[C@H](O)c3ccc(O)cn3)C(=O)O)[C@@H](O)[C@H]2O)c(=O)[nH]1", "strain": "FP633", "endpoint": "MIC", "read by": "broth dilution", "result": ">50 µg/mL"}
{"SMILES": "CCC(C)CC(C)CCCCCCCCC(=O)N[C@H]1C[C@@H](O)[C@@H](OCCN)NC(=O)[C@@H]2[C@@H](O)CCN2C(=O)[C@H]([C@@H](O)CCN)NC(=O)[C@H]([C@H](O)[C@@H](O)c2ccc(O)cc2)NC(=O)[C@@H]2C[C@@H](O)CN2C(=O)[C@H]([C@H](C)O)NC1=O", "strain": "ATCC 24433", "endpoint": "MIC", "result": "≤0.007 µg/mL"}
{"SMILES": "COc1cc(O)c2c(c1)C(=O)c1c(cc3c(c1O)-c1c(cc(C)c(C(=O)N[C@H](CO)C(=O)O)c1O)[C@H](OC1OC(C)C(N)C(OC4OCC(O)C(O)C4O)C1O)[C@H]3O)C2=O", "strain": "IAM4888", "endpoint": "MIC", "result": "6.3 µg/mL"}
{"SMILES": "CC[C@H]1OC(=O)C[C@@H](O)[C@H](C)[C@@H](OC2OC(C)C(O)C(N(C)C)C2O)[C@@H](CCN2CC(C)CC(C)C2)C[C@@H](C)C(=O)/C=C/C=C/[C@@H]1CSc1ccccn1", "endpoint": "MIC", "result": "2.5 µg/mL"}
{"SMILES": "CO[C@H]1C[C@@H]2CC[C@@H](C)[C@@](O)(O2)C(=O)C(=O)N2CCCC[C@H]2C(=O)O[C@H]([C@H](C)C[C@@H]2CC[C@@H](C(=O)ON3CCNCC3)[C@H](OC)C2)CC(=O)[C@H](C)/C=C(\\C)[C@@H](O)[C@@H](OC)C(=O)[C@H](C)C[C@H](C)CCCC/C=C/1C", "strain": "442", "endpoint": "MIC", "result": ">100 µg/mL"}
{"SMILES": "Cc1ccc(C2(c3ccc(C)cc3)C(=O)N(c3ccc(Cl)cc3)C2c2cccs2)cc1", "endpoint": "MIC", "result": "100 µg/mL"}
{"SMILES": "CO[C@H]1C[C@@H]2CC[C@@H](C)[C@@](O)(O2)C(=O)C(=O)N2CCCC[C@H]2C(=O)O[C@H]([C@H](C)C[C@@H]2CC[C@H](c3nn[nH]n3)[C@H](OC)C2)CC(=O)[C@H](C)/C=C(\\C)[C@@H](O)[C@@H](OC)C(=O)[C@H](C)C[C@H](C)CCCC/C=C/1C", "strain": "442", "endpoint": "MIC", "result": ">100 µg/mL"}
{"SMILES": "Clc1nssc1=Nc1cccc2ncccc12", "strain": "ATCC 10231", "endpoint": "MIC", "result": "32 µg/mL"}
{"SMILES": "C[C@H](n1nnc(CCN2CCN(c3ccc(Cl)cc3)CC2)n1)[C@](O)(Cn1cncn1)c1ccc(F)cc1F", "strain": "V-01-191A-261 (resistant)", "endpoint": "MIC", "result": "4 µg/mL"}
{"SMILES": "O=C1C(Nc2ccccc2)=C(S(=O)c2ccc(O)cc2)C(=O)c2ccccc21", "endpoint": "MIC50", "result": ">3 µg/mL"}
{"SMILES": "O=C1CC(Nc2ccc(Oc3ccc(Cl)cc3)c(Cl)c2)C(=O)N1c1cccc2ccccc12", "endpoint": "MIC", "result": ">200 µg/mL"}
{"SMILES": "CC[C@H]1OC(=O)C[C@@H](O)[C@H](C)[C@@H](OC2OC(C)C(O)C(N(C)C)C2O)[C@@H](CCN2CC(C)CC(C)C2)C[C@@H](C)C(=O)/C=C/C=C/[C@@H]1CNN1CCC2CCCCC21", "endpoint": "MIC", "result": "0.625 µg/mL"}
{"SMILES": "CCN(CC)Cn1c(C=Cc2ccc(O)cc2)nc2ccccc21", "endpoint": "MIC", "result": "37.2 µM"}
{"SMILES": "O=C(N/N=C/c1ccc2ccccc2n1)c1ccccc1SSc1ccccc1C(=O)N/N=C/c1ccc2ccccc2n1", "endpoint": "MIC", "result": "250 µg/mL"}
{"SMILES": "COc1ccc(N2C(=O)C(c3ccc(C)cc3)(c3ccc(C)cc3)C2c2cccs2)cc1", "endpoint": "MIC", "result": "100 µg/mL"}
{"SMILES": "CCC(C(SCCN)c1c(Cl)ccc([N+](=O)[O-])c1Cl)[N+](=O)[O-]", "endpoint": "MIC", "result": ">1000 µg/mL"}
{"SMILES": "O=C1CN(c2cc3c(cc2F)c(=O)c(C(=O)O)cn3Cc2ccccc2)C(=O)CN1", "strain": "ATCC 2091", "endpoint": "MIC", "result": "50.1 µg/mL"}
{"SMILES": "O=C(N/N=C/c1ccccc1OCCCl)c1ccccc1SSc1ccccc1C(=O)N/N=C/c1ccccc1OCCCl", "endpoint": "MIC", "result": ">250 µg/mL"}
{"SMILES": "C[C@H](n1nnc(CCN2CCN(c3ccc(F)cc3)CC2)n1)[C@](O)(Cn1cncn1)c1ccc(F)cc1F", "endpoint": "MIC", "result": "2 µg/mL"}
{"SMILES": "COc1ccc(N2C(=O)CC(Nc3ccc(Oc4ccc(Cl)cc4)c(Cl)c3)C2=O)cc1", "endpoint": "MIC", "result": ">200 µg/mL"}
{"SMILES": "CO[C@@H]1C[C@H](C[C@@H](C)[C@@H]2CC(=O)[C@H](C)/C=C(\\C)[C@@H](O)[C@@H](OC)C(=O)[C@H](C)C[C@H](C)/C=C/C=C/C=C(\\C)[C@H](N(OC)C(=O)N(C)C)C[C@@H]3CC[C@@H](C)[C@@](O)(O3)C(=O)C(=O)N3CCCC[C@H]3C(=O)O2)CC[C@H]1C(=O)ON(C)O", "strain": "442", "endpoint": "MIC", "result": ">100 µg/mL"}
{"SMILES": "Cc1ccc(C(Cc2ccc(Cl)cc2)n2ccnc2)s1", "endpoint": "MIC", "result": ">18 µM"}
{"SMILES": "Cc1ccc(SC2=C(Sc3ccc(C)cc3)C(=O)c3ccccc3C2=O)cc1", "endpoint": "MIC50", "result": ">3 µg/mL"}
{"SMILES": "CS(C)=O", "strain": "CA6", "endpoint": "MIC", "result": "250 µg/mL"}
{"SMILES": "NNC(=O)c1cc(Br)ccc1SSc1ccc(Br)cc1C(=O)NN", "endpoint": "MIC", "result": ">250 µg/mL"}
{"SMILES": "C[C@H](n1nnc(CCN2CCN(c3ccc([N+](=O)[O-])cc3)CC2)n1)[C@](O)(Cn1cncn1)c1ccc(F)cc1F", "strain": "V-01-191A-261 (resistant)", "endpoint": "MIC", "result": "4 µg/mL"}
{"SMILES": "O=C1CC(Nc2ccc(Oc3ccc(Cl)cc3)c(Cl)c2)C(=O)N1c1ccccc1", "endpoint": "MIC", "result": "40 µg/mL"}
{"SMILES": "CC1NC(=O)C(C)N(c2cc3c(cc2F)c(=O)c(C(=O)O)cn3Cc2ccccc2)C1=O", "strain": "ATCC 2091", "endpoint": "MIC", "result": "50.2 µg/mL"}
{"SMILES": "Cc1ccc(C2(c3ccc(C)cc3)C(=O)N(c3ccccc3)C2c2cccs2)cc1", "endpoint": "MIC", "result": "100 µg/mL"}
{"SMILES": "CC[C@H]1OC(=O)C[C@@H](O)[C@H](C)[C@@H](OC2OC(C)C(O)C(N(C)C)C2O)[C@@H](CCN2CC(C)CC(C)C2)C[C@@H](C)C(=O)/C=C/C=C/[C@@H]1CNN1CC(C)CC(C)C1", "endpoint": "MIC", "result": "0.312 µg/mL"}
{"SMILES": "COc1ccc(SC2=C(Sc3ccc(OC)cc3)C(=O)c3ccccc3C2=O)cc1", "endpoint": "MIC50", "result": ">3 µg/mL"}
{"SMILES": "CN1C(=O)COc2ccc(C(Cn3ccnc3)OCc3ccc(Cl)cc3)cc21", "strain": "CA6", "endpoint": "MIC", "result": "7.8–15.6 µg/mL"}
{"SMILES": "Cn1cccc1C(Cc1ccc(Cl)cc1)n1ccnc1", "endpoint": "MIC", "result": ">300 µM"}
{"SMILES": "Cc1ccc(NC(=O)CN(C)CC(O)(Cn2cncn2)c2ccc(F)cc2F)cc1", "endpoint": "MIC80", "result": "16 µg/mL"}
{"SMILES": "Cc1ccc(C(Cc2ccc([N+](=O)[O-])cc2)n2ccnc2)s1", "endpoint": "MIC", "result": "150 µM"}
{"SMILES": "CO[C@H]1C[C@@H]2CC[C@@H](C)[C@@](O)(O2)C(=O)C(=O)N2CCCC[C@H]2C(=O)O[C@H]([C@H](C)C[C@@H]2CC[C@@H](C(=O)ON(C)C)[C@H](OC)C2)CC(=O)[C@H](C)/C=C(\\C)[C@@H](O)[C@@H](OC)C(=O)[C@H](C)C[C@H](C)CCCC/C=C/1C", "strain": "38247", "endpoint": "MIC", "result": "50 µg/mL"}
{"SMILES": "O=C1CC(Nc2ccc(Oc3ccc(Cl)cc3)c(Cl)c2)C(=O)N1c1ccc(Cl)cc1", "endpoint": "MIC", "result": "40 µg/mL"}
{"SMILES": "C[C@H](n1nnc(CCN2CCN(c3ccccn3)CC2)n1)[C@](O)(Cn1cncn1)c1ccc(F)cc1F", "endpoint": "MIC", "result": "8 µg/mL"}
{"SMILES": "O=C1CC(Nc2ccc(Oc3ccc(Cl)cc3)c(Cl)c2)C(=O)N1Cc1ccccc1", "endpoint": "MIC", "result": "200 µg/mL"}
{"SMILES": "O=C1N(c2ccc([N+](=O)[O-])cc2)C(c2cccs2)C1(c1ccccc1)c1ccccc1", "endpoint": "MIC", "result": "100 µg/mL"}
{"SMILES": "CC[C@H]1OC(=O)C[C@@H](O)[C@H](C)[C@@H](OC2OC(C)C(O)C(N(C)C)C2O)[C@@H](CCN2CC(C)CC(C)C2)C[C@@H](C)C(=O)/C=C/C=C/[C@@H]1CSC1CCCCC1", "endpoint": "MIC", "result": "5 µg/mL"}
{"SMILES": "Nc1ccc(CC(c2cccs2)n2ccnc2)cc1", "endpoint": "MIC", "result": "300 µM"}
{"SMILES": "CCN(CC)Cn1c(C=Cc2ccc(C)cc2)nc2ccccc21", "endpoint": "MIC", "result": "18.7 µM"}
{"SMILES": "O=C(O)c1ccc(N2C(=O)CC(Nc3ccc(Oc4ccc(Cl)cc4)c(Cl)c3)C2=O)cc1", "endpoint": "MIC", "result": ">200 µg/mL"}
{"SMILES": "CCCCC1Sc2ccc(C(Cn3ccnc3)OCc3ccc(Cl)cc3)cc2N(C)C1=O", "strain": "CA6", "endpoint": "MIC", "result": "<1.8 µg/mL"}
{"SMILES": "CCCCCOc1ccc(-c2ccc(-c3ccc(C(=O)N[C@H]4C[C@@H](O)[C@@H](O)NC(=O)[C@@H]5[C@@H](O)[C@@H](C)CN5C(=O)[C@H]([C@H](C)O)NC(=O)[C@H]([C@H](O)[C@@H](O)c5ccc(O)cc5)NC(=O)[C@@H]5C[C@@H](O)CN5C(=O)[C@H]([C@H](C)O)NC4=O)cc3)cc2)cc1", "strain": "42 isolates", "endpoint": "MIC90", "result": "0.0078 µg/mL"}
{"SMILES": "COc1ccccc1/C=N/NC(=O)c1cc(Cl)ccc1SSc1ccc(Cl)cc1C(=O)N/N=C/c1ccccc1OC", "endpoint": "MIC", "result": "250 µg/mL"}
{"SMILES": "CCN(CC)Cn1c(C=Cc2ccc(N(C)C)cc2)nc2ccccc21", "endpoint": "MIC", "result": "17.2 µM"}
{"SMILES": "Cn1ccc(C(Cc2ccc(N)cc2)n2ccnc2)c1", "endpoint": "MIC", "result": ">300 µM"}

The first 7 rows once more:

SMILES,strain,endpoint,read by,result
CN(CC(=O)Nc1ccc(F)c(Cl)c1)CC(O)(Cn1cncn1)c1ccc(F)cc1F,-,MIC80,-,1 µg/mL
CC[C@H]1OC(=O)C[C@@H](O)[C@H](C)[C@@H](OC2OC(C)C(O)C(N(C)C)C2O)[C@@H](CCN2CC(C)CC(C)C2)C[C@@H](C)C(=O)/C=C/C=C/[C@@H]1CSc1ccccc1,-,MIC,-,0.312 µg/mL
COc1ccc(N2C(=O)C(c3ccccc3)(c3ccccc3)C2c2cccs2)cc1,-,MIC,-,100 µg/mL
CC[C@H]1OC(=O)C[C@@H](O)[C@H](C)[C@@H](OC2OC(C)C(O)C(N(C)C)C2O)[C@@H](CCN2CC(C)CC(C)C2)C[C@@H](C)C(=O)/C=C/C=C/[C@@H]1COc1ccccc1,-,MIC,-,1.25 µg/mL
NCCSC(C[N+](=O)[O-])c1cc([N+](=O)[O-])ccc1Br,-,MIC,-,1000 µg/mL
CCN(CC)Cn1c(C=Cc2ccc([N+](=O)[O-])cc2)nc2ccccc21,-,MIC,-,17.1 µM
CC(C)N=C(N)c1ccc2nc(-c3ccc4c(c3)Cc3cc(-c5nc6ccc(C(N)=NC(C)C)cc6[nH]5)ccc3-4)[nH]c2c1,Isolate 3028 fluconazole-resistant,MIC,-,1.56 µg/mL